# Target: T1, LtpM (Legionella pneumophila, UniProt A0A3A6VV34)
# The chains behind the UniProt entries cited, without tags or fusion partners. Residues count along the entry.
# UniProt A0A3A6VV34, 1-639: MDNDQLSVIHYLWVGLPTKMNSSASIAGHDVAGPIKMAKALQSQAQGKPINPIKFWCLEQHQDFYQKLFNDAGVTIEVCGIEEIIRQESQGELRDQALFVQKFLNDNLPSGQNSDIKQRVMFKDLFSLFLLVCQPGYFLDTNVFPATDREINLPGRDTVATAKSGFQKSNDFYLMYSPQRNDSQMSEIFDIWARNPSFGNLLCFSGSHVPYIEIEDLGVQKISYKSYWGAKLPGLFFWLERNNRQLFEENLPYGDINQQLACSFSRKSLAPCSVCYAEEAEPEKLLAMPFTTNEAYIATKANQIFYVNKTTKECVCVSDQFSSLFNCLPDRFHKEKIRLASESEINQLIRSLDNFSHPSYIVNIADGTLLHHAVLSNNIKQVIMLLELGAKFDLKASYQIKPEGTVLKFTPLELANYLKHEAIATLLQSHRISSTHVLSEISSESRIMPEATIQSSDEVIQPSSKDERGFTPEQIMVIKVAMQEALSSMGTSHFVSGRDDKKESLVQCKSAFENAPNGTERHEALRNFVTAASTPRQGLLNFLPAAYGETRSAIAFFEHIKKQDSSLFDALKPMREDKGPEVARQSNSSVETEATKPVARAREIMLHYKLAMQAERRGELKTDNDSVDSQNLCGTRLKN
# T1 construct: gene D1H98_02725
substance,measurement,value
biotin-PI3P,Kd,591 ± 203 nM

# Reference: publication PMC6393602 (The Journal of Biological Chemistry, 2018)
